We go through two molecules from patent publication US20230174473A1, “ANTIMICROBIAL AND ANTIVIRAL SULFUR CONTAINING GLYCEROL MONOESTER DERIVATIVES” (priority 2020, published 2023).

This data set concerns Lipase (glycerol ester hydrolase). The data set is described as follows: Lipase (glycerol ester hydrolase) assay, esterase resistance. Particulars: for diameters (hydrolysis zone) / diameters squared: 500 ug/ml compound in agarose slide, 24 hours at 37° C.; for diameters (hydrolysis zone): 20 ul lipase 25 ug/ml per well, two lipase samples; for diameters squared: lipase 25 ug/ml. It is filed as biochemical, Staphylococcus aureus. The protocol: Protocol for Lipase (glycerol ester hydrolase) assay: • 1. Two separate samples of lipase at 25 ug/ml were prepared. • 2. Microscope slides were made up with 500 ug/ml of GML, SGML, or S2ML compounds. • These slides contained 0.85% agarose (Difco) heat solubilized into PBS (0.005 M NaPO4 pH 7.2; 0.15MNaC1). • 3. The mixtures contained the compounds above their solubility limits, so they were vortexed, and 4.5 ml of the cloudy mixtures was spread onto microscope slides. • 4. The slides remained at room temperature for 1 hour to allow the agarose to solidify. • 5. The, 4 mm wells were punched into the agarose, twice per slide. • 6. 20 ul of the Lipase was added to each well. • 7. The slides were incubated for 24 hours at 37° C. • 8. The diameter squared was determined for each. This allows determination of hydrolysis of compound. • GML: 15 mm; 15 mm diameters (diameters squared=225 mm) • SGML: 12 mm; 13 mm diameters (diameters squared=144 mm and 169 mm for an average of 156.5 mm) • S2GML: 0 mm; 0 mm diameters (diameters squared=0) • 10. Diameter squared is used to the determination would be a straight line with a standard curve. • Set GML at 100% • 11. SGML is 70% as much as GML • 12. S2GML is 0% of GML

Several values for one entry are separate records, joined by “and”; a condition that tells them apart may be missing. Equal entries are not always repeated.

`CCCCCCCCCCCC(=S)SCC(O)CO` (centres unmarked) [Example S2GML, glycerol dithionomonolaureate]: the “diameters (hydrolysis zone)” value is 0 mm and the diameters squared was 0 mm.

Regarding `CCCCCCCCCCCC(=S)OCC(O)CO` (centres unmarked) [SGML, glycerol thionomonolaureate], the “diameters (hydrolysis zone)” value was 12 mm and 13 mm; the diameters squared is 144 mm and 169 mm. The “diameters squared, average” value (average of two lipase samples) is recorded as 156.5 mm.
